From paper PMC8237258 (Journal of Medicinal Chemistry, 2021)

The chains behind the UniProt entries cited, without tags or fusion partners. Residues count along the entry.
UniProt P25092, 24-1073 limits assumed: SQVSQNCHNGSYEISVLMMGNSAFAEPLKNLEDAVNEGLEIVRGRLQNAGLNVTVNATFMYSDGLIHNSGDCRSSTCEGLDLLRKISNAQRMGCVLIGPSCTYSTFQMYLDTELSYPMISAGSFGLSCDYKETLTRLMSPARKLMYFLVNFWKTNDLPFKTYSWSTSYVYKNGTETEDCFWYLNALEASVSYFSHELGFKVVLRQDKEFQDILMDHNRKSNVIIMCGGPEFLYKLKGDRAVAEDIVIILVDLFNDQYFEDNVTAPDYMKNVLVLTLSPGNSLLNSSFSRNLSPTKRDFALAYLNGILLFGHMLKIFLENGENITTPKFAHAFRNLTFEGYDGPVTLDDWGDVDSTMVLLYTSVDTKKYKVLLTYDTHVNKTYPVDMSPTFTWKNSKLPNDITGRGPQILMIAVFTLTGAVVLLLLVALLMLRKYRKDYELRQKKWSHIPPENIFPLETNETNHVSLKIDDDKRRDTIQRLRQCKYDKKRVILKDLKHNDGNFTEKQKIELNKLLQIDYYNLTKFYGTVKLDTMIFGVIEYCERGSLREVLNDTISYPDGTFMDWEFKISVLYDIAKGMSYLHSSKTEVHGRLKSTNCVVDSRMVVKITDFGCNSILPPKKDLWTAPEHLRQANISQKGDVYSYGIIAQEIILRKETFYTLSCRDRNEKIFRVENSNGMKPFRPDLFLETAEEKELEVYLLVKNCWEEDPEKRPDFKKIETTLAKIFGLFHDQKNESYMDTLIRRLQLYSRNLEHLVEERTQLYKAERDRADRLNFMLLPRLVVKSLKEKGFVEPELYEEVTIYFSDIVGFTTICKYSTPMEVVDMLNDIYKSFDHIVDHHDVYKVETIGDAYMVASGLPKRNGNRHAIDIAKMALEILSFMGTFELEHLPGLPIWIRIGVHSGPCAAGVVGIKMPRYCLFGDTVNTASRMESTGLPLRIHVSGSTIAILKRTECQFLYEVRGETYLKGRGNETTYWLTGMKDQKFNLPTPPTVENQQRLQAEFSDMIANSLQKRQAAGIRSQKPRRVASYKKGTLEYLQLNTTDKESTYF

What was measured:
GC-C receptor = GC-C receptor (Homo sapiens, UniProt P25092); test: cGMP accumulation in human T84 cells (Cisbio cGMP HTRF assay); details: read-out: EC50 ± SEM, 30 min, 0.5 mM IBMX, n ≥ 3
Method: We evaluated our linaclotide analogues for their ability to activate the GC-C receptor in human epithelial intestinal T84 cells that natively express this receptor. GC-C activation results in production of second messenger cGMP, which was measured using a commercially available kit (cGMP HTRF assay kit, Cisbio International). […] . All analogues, except [cyclic]-Linaclotide, retained the ability to increase cGMP levels at nanomolar concentrations (Figure 2B,C). […] . […] Human epithelial colorectal adenocarcinoma T84 cells (ECACC) were routinely cultured in the DMEM + Ham’s F-12 medium supplemented with 10% heat-inactivated fetal calf serum and 2 mM L-glutamine at 37 °C in 5% CO2. Assays measuring cGMP accumulation were performed following the manufacturer’s instructions (cGMP HTRF assay kit, Cisbio International). In brief, increasing concentrations of linaclotide analogues were added to 20,000 cells in DMEM/F12 media containing 0.5 mM IBMX in a white 384-well plate (Optiplate, PerkinElmer Life Sciences). The plates were incubated for 30 min at 37 °C with 5% CO2. […] The emission signals were measured at 590 and 665 nm after excitation at 340 nm using a Tecan multilabel plate reader (Thermo Fisher Scientific).

[1] = Simulated intestinal fluid (SIF) stability assay; details: simulated intestinal fluid with porcine pancreatin, pH 6.8, 37 °C, sampled up to 8 h, one-phase decay
Method: (§1) . Simulated gastric fluid (SGF) was prepared by dissolving 20 mg of NaCl and 8 mg of pepsin in 70 μL of concentrated HCl (32%), and the volume was diluted to 10 mL with water (pH 1.3).[36] Simulated intestinal fluid (SIF) was prepared by dissolving 68 mg of KH2PO4 in 500 μL of water followed by the addition of 800 μL of 0.2 M NaOH and 100 mg of porcine pancreatin, and the volume was adjusted to 10 mL with water (pH 6.8).[36] Peptide stock solution (2 mg/mL in water, 15 μL) was diluted in 285 μL of SGF or SIF and incubated at 37 °C. Aliquots (30 μL) were withdrawn at 0 min, 5 min, 15 min, 30 min, 1 h, 2 h, 4 h, and 8 h and subsequently quenched with 30 μL of 0.2 M Na2CO3 (SGF) or 10% aqueous TFA (SIF). The samples were centrifuged, and the supernatant (15 μL) was analyzed by analytical HPLC. The remaining peptide was determined by measuring the peak area and expressing it as a percentage of the peak area at the 0 h time point. Peptide half-life (t1/2) was determined from the degradation profiles and calculated using Prism 7 (GraphPad, La Jolla USA), assuming an exponential one-phase decay.

[2] = Simulated gastric fluid (SGF) stability assay; details: simulated gastric fluid with pepsin, pH 1.3, 37 °C, sampled up to 8 h, one-phase decay
Method: as §1

For C[C@@H]1NC(=O)[C@@H]2CCCN2C(=O)[C@H](CC(N)=O)NC(=O)[C@@H]2C[Se][Se]C[C@H](N)C(=O)N[C@H]3CSSC[C@H](NC1=O)C(=O)N[C@@H]([C@@H](C)O)C(=O)NCC(=O)N[C@H](C(=O)N[C@H](Cc1ccc(O)cc1)C(N)=O)CSSC[C@H](NC(=O)[C@H](Cc1ccc(O)cc1)NC(=O)[C@H](CCC(=O)O)NC3=O)C(=O)N2, the EC50 (GC-C receptor) was 5 nM, the “t1/2 SIF” value [1] was over 8 h and the “t1/2 SGF” value [2] was over 8 h.

This is a selection: effects in other tests are not listed, and their absence says nothing.
